A mixed list of measured activities; the numbers were collected in NIAID ChemDB.

Shared fields: tests on isolated targets; species: Pneumocystis carinii

ICn: concentration for n% inhibition.

compound	protein	method	endpoint	dose	result
Cc1cc(Cc2cnc(N)nc2N)cc2c1NN(C)C2	DHFR	-	IC50	-	18 µM
Nc1nc(N)c2nc(CSc3ccccc3)cnc2n1	Dihydrofolate reductase	-	IC50	-	9.5 µM
CC(=O)NS(=O)(=O)c1ccc(NC(=O)c2ccco2)cc1	DHPS	-	IC50	-	>10 µM
COc1ncnc(NS(=O)(=O)c2ccc(N)cc2)c1OC	Oxidosqualene cyclase	HPLC	IC50	-	>500 µM
N#CCc1nc(N)nc(N)c1-c1ccc(Cl)cc1	Dihydrofolate reductase	-	IC50	-	490 µM
N=C(N)c1ccc2nc(CCc3nc4ccc(C(=N)N)cc4[nH]3)[nH]c2c1	Topoisomerase II	-	IC50	-	0.31–1.25 µM
Cc1ncncc1NS(=O)(=O)c1ccc(N)cc1	DHPS	-	IC50	-	2.7 µM
CCOC(=O)c1ccc(NC(=O)Nc2cc(Cl)ccc2Oc2ccccc2)cc1	DHFR	-	inhibition	100 µM	17%
Nc1nc(N)c2c(n1)Cc1c(Cl)cccc1-2	Dihydrofolate reductase	-	IC50	-	7.2 µM
CN(Cc1cnc2nc(N)nc(N)c2n1)c1ccc(C(=O)O)cc1	Dihydrofolate reductase	-	IC50	-	0.94 µM
CCCNC(=O)c1ccc(NCc2cnc3nc(N)nc(N)c3n2)cc1	DHFR	-	IC50	-	3.1 µM
CC(=CCC/C(C)=C/COCCCc1ccccc1)CCC(=O)N(C)C	Oxidosqualene cyclase	-	IC50	-	>10 µM
COc1cc(Cc2cnc(N)nc2N)cc(OC)c1C(=O)CS(=O)(=O)c1ccccc1	DHFR	-	IC50	-	14.8 µM
CC1(C)N=C(N)N=C(N)N1c1cc(C(F)(F)F)cc(C(F)(F)F)c1	DHFR	-	IC50	-	66.9 µM
N=C(N)c1ccc2nc(/C=C/c3nc4ccc(C(=N)N)cc4[nH]3)[nH]c2c1	Topoisomerase II	-	IC50	-	0.31–1.25 µM
CN(Cc1cnc2nc(N)nc(N)c2n1)c1ccccc1	Dihydrofolate reductase	-	IC50	-	10 µM
Nc1nc(N)c2c(ccc3cc(Cl)ccc32)n1	Dihydrofolate reductase	-	IC50	-	0.43 µM
NC(=S)NS(=O)(=O)c1ccc(N)cc1	DHPS	-	IC50	-	0.022 µM
Nc1ccc(S(=O)(=O)c2ccc(N)cc2)cc1	Oxidosqualene cyclase	HPLC	IC50	-	215 µM
Nc1nc(N)c2c(ccc3ccc(Cl)cc32)n1	DHFR	-	IC50	-	0.12 µM
O=C(O)c1c(Cl)c(Cl)c(Cl)c(Cl)c1C(=O)Nc1cccc(C(F)(F)F)c1	DHFR	-	inhibition	100 µM	>21%
CC(C)N=C(N)c1ccc2nc(/C=C\c3nc4ccc(C(N)=NC(C)C)cc4[nH]3)[nH]c2c1	Topoisomerase II	-	IC50	-	0.312 µM
COc1ccc2c(c1)CCc1nc(N)nc(N)c1-2	Dihydrofolate reductase	-	IC50	-	6.2 µM
COc1ccc2nc(NC(=O)Nc3ccc(Cl)c(Cl)c3)sc2c1	DHFR	-	inhibition	100 µM	24%
CN(Cc1cnc2nc(N)nc(N)c2n1)c1ccc(C(=O)N[C@H](CCC(=O)O)C(=O)O)cc1F	DHFR	-	IC50	-	0.00072 µM
CN(Cc1cnc2nc(N)nc(N)c2n1)c1c(Cl)cc(C(=O)N[C@@H](CCC(=O)O)C(=O)O)cc1Cl	Dihydrofolate reductase	-	IC50	-	0.000035 µM
Cc1c(N)cc(Cc2cnc(N)nc2N)cc1-n1cccc1	DHFR	-	IC50	-	33.5 µM
N=C(N)c1ccc2nc(CCc3nc4ccc(C(=N)N)cc4[nH]3)[nH]c2c1	Topoisomerase II	-	IC50	-	10 µM
CC(CCCN)Nc1cc(O)c(O)c2cccnc12	Dihydroorotate dehydrogenase	-	inhibition	10 µM	0%
COc1ccccc1NC1=C(Cl)C(=O)C(Nc2ccccc2OC)=C(Cl)C1=O	DHFR	-	inhibition	100 µM	31%
Cc1cc(C)nc(/N=C(\N)Nc2ccc(S(=O)(=O)NC(=O)Nc3ccccc3)cc2)n1	DHPS	-	IC50	-	>10 µM
Nc1nc(N)c2c(n1)CCc1c(Cl)cc(Cl)cc1-2	DHFR	-	IC50	-	1.07 µM
COc1ncnc(NS(=O)(=O)c2ccc(N)cc2)c1OC	DHPS	-	IC50	-	0.74 µM
Nc1nc(N)c2c(ccc3c(Cl)c(Cl)ccc32)n1	Dihydrofolate reductase	-	IC50	-	1 µM
Cc1c(CNc2ccc(C(=O)NC(CC(=O)O)CC(=O)O)cc2)ccc2nc(N)nc(N)c12	Dihydrofolate reductase	-	IC50	-	0.00022 µM

For reference, 2 entries again:

compound,protein,method,endpoint,dose,result
Nc1nc(N)c2c(ccc3ccc(Cl)cc32)n1,DHFR,-,IC50,-,0.12 µM
Cc1cc(Cc2cnc(N)nc2N)cc2c1NN(C)C2,DHFR,-,IC50,-,18 µM

Lines come from different laboratories, so protocols vary. Blank or dashed fields: not listed here. a–b is a range or a potency band. Percent inhibition refers to the dose given; in toxicity tests it is the harm to the cells.